Like-named read-outs stand apart in the source and are kept apart here. No end group written: not given here.
Test system: male ICR mice
Protocol: Az acute toxicity was estimated for its intravenous (iv) and intramuscular (im) administration to male ICR mice in a stepwise procedure.
For the iv route of administration, 20 mice were randomly divided in 5 groups of 4 animals each. The animals of each group received a single dose of Az (0.3, 0.4, 0.5, 0.6, or 0.7 mg/kg, respectively) injected into the lateral tail vein at a volume of 1 mL/kg. For the im route of administration, first two experimental groups of 3 animals each were formed. Az at doses of 0.75 and 1.0 mg/kg, respectively, was injected into the quadriceps muscle of the thigh (quadriceps femoris muscle) of two mouse hind limbs at a volume of 0.5 mL/kg to each muscle. Then, five experimental groups of 5 animals each were formed. Az was injected into the quadriceps muscle of the thigh (quadriceps femoris muscle) of the two hind limbs of male ICR mice at doses of 0.8, 0.775, 0.75, 0.725 and 0.7 mg/kg. The injection volume to each limb was 1 mL/kg. Further, neurotoxic manifestations were recorded in animals at 5, 10, 20, 30, 60 and 90 min and 24 h after administration using the functional observation battery, the number of death was counted as well.
For the iv and im route of administration, the median lethal dose (LD50) was calculated using a probit analysis. For the im route of administration, the maximum tolerated dose was determined. […]

Row | Compound | lethality (rocuronium im 0.13 mg/kg, n = 1) | lethality (single im 0.7 mg/kg)
1 | C=CC[N+]1([C@H]2C[C@H]3[C@@H]4CC[C@H]5C[C@H](O)[C@@H](N6CCOCC6)C[C@]5(C)[C@H]4CC[C@]3(C)[C@H]2OC(C)=O)CCCC1 [rocuronium, Rocuronium Bromide, reference compound] | lethal | –
2 | DNWWPKPPHQGPRPPRPRPKP-NH2 [Az, azemiopsin] | – | all mice were alive
